A mixed list of measured activities; the numbers were collected in NIAID ChemDB.

Common to all: whole-cell or culture tests; organism: Hepatitis B virus; endpoint: EC50

ECn is the concentration giving n% inhibition of infection, replication or growth.

smiles,cells,strain or isolate,value
COC(=O)C1=C(CN2CCN(C(=O)OC(C)(C)C)CC2)NC(c2ncc(F)cc2F)=N[C@H]1c1ccc(F)cc1Cl,HepG2.2.15,,0.04 µM
COC(=O)Cc1cnc2cc(N)cc(OC)c2c1,,,0.32 µg/mL
Nc1nc(N)c2ncn([C@H]3CO[C@@H](CO)O3)c2n1,AD38,Wild,12 µM
COC(=O)c1cc2c(OC)cc(N)cc2[nH]1,,,6.14 µg/mL
COC(=O)C1=C(C)NC(c2ncccc2N)=N[C@H]1c1ccc(F)cc1Cl,HepG2.2.15,,>100 µM
COc1cc(N)cc2[nH]c(N)cc(=O)c12,,,0.1 µg/mL
Nc1ccn([C@@H]2CS[C@@H](CO)O2)c(=O)n1,CEM,,>5 µM
COC(=O)C1=C(C)NC(c2ccccn2)=N[C@H]1c1ccccc1Cl,HepG2.2.15,,2 µM
Nc1ccn([C@@H]2CS[C@H](CO)O2)c(=O)n1,HepAD38,,0.03 µM
CCOC(=O)[C@H](C)NP(=O)(OC[C@@H]1OC[C@H](n2cnc3c(N)nc(N)nc32)O1)Oc1ccccc1,AD38,Wild,0.3 µM
Nc1nc(NC2CC2)c2ncn(C=C3CC3CO)c2n1,2.2.15,,2 µM
C=C1[C@@H](n2cnc3c(N)ncnc32)[C@H](F)[C@H](O)[C@H]1CO,Huh7,,0.548 µM
COC(=O)C1=C(CN2[C@@H]3CC[C@@H]2COC3)NC(c2ncc(F)cc2F)=N[C@H]1c1ccc(F)cc1Cl,HepG2.2.15,,0.015 µM
COC(=O)c1cc2c(OC)cc(N)cc2s1,,,8.15 µg/mL
COC(=O)C1=C(CN2CCN(C(=O)Oc3ccccc3)CC2)NC(c2ncccc2F)=N[C@H]1c1ccc(F)cc1Br,HepG2.2.15,,0.04 µM
COC(=O)C1=C(C=O)NC(c2ccccn2)=NC1c1ccccc1Cl,HepG2.2.15,,>12 µM
COC(=O)[C@H](C)NP(=O)(OC[C@H]1C/C1=C/n1cnc2c(OC)nc(N)nc21)Oc1ccccc1,2.2.15,,2 µM
Cc1c(Br)c(=O)[nH]c(=O)n1COC(CO)CO,D88,Mutant L180M/M204V,30 µg/mL
COC(=O)C1=C(C)NC(c2ncccc2Cl)=N[C@H]1c1ccc(F)cc1Cl,HepG2.2.15,,0.9 µM
C=C1[C@H](CO)[C@@H](O)C[C@@H]1n1cnc2c(=O)[nH]c(N)nc21,Huh7,,0.008 µM
Nc1ncnc2c1ncn2[C@H]1C[C@]12C[C@H]2CO,2.2.15,,>10 µM
COc1cc(N)cc2[nH]c(CC(=O)O)cc12,,,0.24 µg/mL
COC(=O)C1=C(CN2CCN(C(=O)OC)CC2)NC(c2ncccc2F)=NC1c1ccc(F)cc1Br,HepG2.2.15,,0.08 µM
COC(=O)c1cc2ccc(N(C)C)cc2[nH]1,,,0.43 µg/mL
Nc1nc(NC2CC2)c2ncn([C@H]3CO[C@@H](CO)O3)c2n1,AD38,Wild,<10 µM
C[C@]1(CO)O[C@@H](n2cc(F)c(=O)[nH]c2=O)[C@H](O)[C@@H]1O,HepG2.2.15,,>10 µM
COC(=O)C1=C(CN2CCN(C(=O)OC)CC2)NC(c2ncc(F)cc2F)=NC1c1ccc(Cl)cc1Cl,HepG2.2.15,,0.08 µM
COC(=O)[C@H](C)NP(=O)(OCC1C/C1=C/n1cnc2c(N)ncnc21)Oc1ccccc1,2.2.15,,0.01 µM
C[C@]1(CO)O[C@@H](n2cc(F)c(N)nc2=O)[C@H](O)[C@@H]1O,HepG2.2.15,,>10 µM

4 of the rows above, restated:

COC(=O)C1=C(CN2CCN(C(=O)OC)CC2)NC(c2ncccc2F)=NC1c1ccc(F)cc1Br ; cells: HepG2.2.15 ; value: 0.08 µM
COC(=O)C1=C(C=O)NC(c2ccccn2)=NC1c1ccccc1Cl ; cells: HepG2.2.15 ; value: >12 µM
C[C@]1(CO)O[C@@H](n2cc(F)c(=O)[nH]c2=O)[C@H](O)[C@@H]1O ; cells: HepG2.2.15 ; value: >10 µM
Nc1ccn([C@@H]2CS[C@H](CO)O2)c(=O)n1 ; cells: HepAD38 ; value: 0.03 µM

Conditions beyond the fields shown may differ between rows. Blank or dashed fields: not listed here.